Measured values from several laboratories, pooled; numbers as filed in NIAID ChemDB.

Shared fields: target-level tests; agent: Hepatitis C virus

ICn is the concentration giving n% inhibition.

{"structure": "CN(C(=O)C1CCCCC1)c1cc(-c2ccccc2)sc1C(=O)O", "read-out": "IC50", "protein": "NS3 ATPase", "result": "<5 µM"}
{"structure": "O=C(O)c1cc2nc(-c3ccccc3)cc(-c3ccc(Oc4ccccc4)cc3)n2n1", "read-out": "IC50", "protein": "RNA-dependent RNA polymerase", "result": ">10 µM"}
{"structure": "O=C(c1ccc2c(c1)nc(-c1cc3ccc(-c4ccccc4-c4ccc(Cl)cc4)nc3cc1F)n2C1CCCCC1)N1CCC(O)CC1", "read-out": "inhibition", "tested at": "100 µM", "protein": "NS5B polymerase", "result": "91.87%"}
{"structure": "Cc1ccc(S(=O)(=O)N(C)c2cc(-c3ccccc3)sc2C(=O)O)c(C)c1Cl", "read-out": "IC50", "protein": "NS3 ATPase", "result": "5–20 µM"}
{"structure": "Cc1cc(-c2nc3cc(C(=O)O)ccc3n2C2CCCCC2)cc2ccc(-c3ccccc3-c3ccccc3)nc12", "read-out": "inhibition", "tested at": "100 µM", "protein": "NS5B polymerase", "result": "97.78%"}
{"structure": "O=C(Nc1cccc(-c2nc(C(=O)O)c(O)c(=O)[nH]2)c1)Nc1ccc(Cl)c(C(F)(F)F)c1", "read-out": "IC50", "protein": "HCV polymerase", "result": "<100 µM"}
{"structure": "CNC(=O)c1c(-c2ccc(F)cc2)oc2cc(N(C3CCC3)S(C)(=O)=O)c(OC(C)C)cc12", "read-out": "IC50", "protein": "Nonstructural protein 5B", "result": "≤0.5 µM"}
{"structure": "CC(C)N(C(=O)c1ccc(Cl)nc1)c1cc(-c2ccccc2)sc1C(=O)O", "read-out": "IC50", "protein": "NS3 ATPase", "result": ">20 µM"}
{"structure": "CNC(=O)c1c(-c2ccc(F)cc2)oc2cc(N3CCCCC3)c(OC(C)C)cc12", "read-out": "IC50", "protein": "Nonstructural protein 5B", "result": "≤0.5 µM"}
{"structure": "Cc1cc(-c2ccccc2Br)nc2ccc(-c3nc4cc(C(=O)O)ccc4n3C3CCCCC3)cc12", "read-out": "inhibition", "tested at": "33 µM", "protein": "NS5B polymerase", "result": "97.79%"}
{"structure": "O=C(O)c1sc(-c2ccc(F)cc2)cc1NS(=O)(=O)c1ccccc1", "read-out": "IC50", "protein": "NS3 ATPase", "result": "<5 µM"}
{"structure": "Nc1ccc(-c2nc(C(=O)O)c(O)c(=O)[nH]2)cc1", "read-out": "IC50", "protein": "HCV polymerase", "result": "<100 µM"}
{"structure": "O=C(O)c1cc2nc(-c3ccc(Oc4cccc(C(F)(F)F)c4)cc3)c(C3CCCCC3)c(=O)n2[nH]1", "read-out": "IC50", "protein": "RNA-dependent RNA polymerase", "result": "<1 µM"}
{"structure": "O=C(O)c1ccc2c(c1)nc(-c1ccc3nc(-c4ccccc4)cc(NCCCn4ccnc4)c3c1)n2C1CCCCC1", "read-out": "inhibition", "tested at": "33 µM", "protein": "NS5B polymerase", "result": "76.27%"}
{"structure": "COc1ccc(CNC(=O)Nc2ccccc2-c2nc(C(=O)O)c(O)c(=O)[nH]2)cc1", "read-out": "IC50", "protein": "HCV polymerase", "result": "<100 µM"}
{"structure": "CC(C)CC(=O)N(C)c1cc(-c2ccccc2)sc1C(=O)O", "read-out": "IC50", "protein": "NS3 ATPase", "result": "<5 µM"}
{"structure": "C[C@H](NC(=O)Nc1cccc(-c2nc(C(=O)O)c(O)c(=O)[nH]2)c1)c1ccccc1", "read-out": "IC50", "protein": "HCV polymerase", "result": "<100 µM"}
{"structure": "CNC(=O)c1c(-c2ccc(F)cc2)oc2cc(-c3cccnc3)c(OC(C)C)cc12", "read-out": "IC50", "protein": "Nonstructural protein 5B", "result": "≤0.5 µM"}
{"structure": "O=C(O)c1nc(-c2ccc(Br)cc2)[nH]c(=O)c1O", "read-out": "IC50", "protein": "HCV polymerase", "result": "<100 µM"}
{"structure": "O=C(O)c1cc2nc(-c3ccccc3)c(CCC3CCCCC3)c(=O)n2[nH]1", "read-out": "IC50", "protein": "RNA-dependent RNA polymerase", "result": "<1 µM"}
{"structure": "Cc1ccccc1S(=O)(=O)Nc1cc(-c2ccc(Cl)cn2)sc1C(=O)O", "read-out": "IC50", "protein": "NS3 ATPase", "result": "<5 µM"}
{"structure": "COC(=O)c1cccc(COc2ccc(-c3cnc4c(-c5nn[nH]n5)cnn4c3C3CCCCC3)cc2)c1", "read-out": "IC50", "protein": "RNA-dependent RNA polymerase", "result": "<1 µM"}
{"structure": "COc1cccc(CNC(=O)Nc2cscc2-c2nc(C(=O)O)c(O)c(=O)[nH]2)c1", "read-out": "IC50", "protein": "HCV polymerase", "result": "<25 µM"}
{"structure": "CNC(=O)c1c(-c2ccc(F)cc2)oc2cc(-c3cc(C)on3)c(OC(C)C)cc12", "read-out": "IC50", "protein": "Nonstructural protein 5B", "result": "≤0.5 µM"}
{"structure": "O=C(O)c1nc(-c2sccc2NC(=O)C(NCc2ccc3ccccc3c2)c2ccccc2)[nH]c(=O)c1O", "read-out": "IC50", "protein": "HCV polymerase", "result": "<25 µM"}
{"structure": "CNC(=O)c1c(-c2ccc(F)cc2)oc2cc(-c3ccoc3)c(OC(C)C)cc12", "read-out": "IC50", "protein": "Nonstructural protein 5B", "result": "≤0.5 µM"}
{"structure": "Cc1cc(S(=O)(=O)N(Cc2cccc(-c3cc4ccccc4o3)c2)c2cc(-c3ccccc3)sc2C(=O)O)c(C)cc1Cl", "read-out": "IC50", "protein": "NS3 ATPase", "result": "5–20 µM"}
{"structure": "CCOc1ccc(-c2ccc(OC)cc2-c2ccc3cc(-c4nc5cc(C(=O)O)ccc5n4C4CCCCC4)ccc3n2)cc1", "read-out": "inhibition", "tested at": "33 µM", "protein": "NS5B polymerase", "result": "100%"}
{"structure": "CC(C)(C)N(C(=O)c1ccc(Cl)cc1Cl)c1cc(-c2ccccc2)sc1C(=O)O", "read-out": "IC50", "protein": "NS3 ATPase", "result": "<5 µM"}
{"structure": "Cn1nc(C(F)(F)F)cc1-c1ccc(S(=O)(=O)Nc2ccccc2-c2nc(C(=O)O)c(O)c(=O)[nH]2)s1", "read-out": "IC50", "protein": "HCV polymerase", "result": "<100 µM"}
{"structure": "O=C(O)c1cc2nc(-c3ccc(-c4cc5ccccc5o4)cc3)c(C3CCCCC3)c(=O)n2[nH]1", "read-out": "IC50", "protein": "RNA-dependent RNA polymerase", "result": "1–10 µM"}
{"structure": "CNC(=O)c1c(-c2ccc(F)cc2)oc2cc(N(CC(O)c3ccc(F)cc3)S(C)(=O)=O)c(OC(C)C)cc12", "read-out": "IC50", "protein": "Nonstructural protein 5B", "result": "≤0.5 µM"}

Lines come from different laboratories, so protocols vary. Two numbers with a dash give a range or band. Inhibition is in % at the dose shown (toxicity tests: loss of growth or viability).